{
  "source": "paper PMC5434880",
  "about": "“Monitoring influenza virus susceptibility to oseltamivir using a new rapid assay, iART” (2017)",
  "test_system": "NA of A/Mississippi/03/2001 (H1N1)",
  "experiment": "CDC standardised fluorescence-based NA inhibition assay, virus isolate",
  "conditions": "read-out: NAI assay^c / IC50, nM (fold)^d; whole virus; NAI inhibitor printed as oseltamivir",
  "data": [
    {"smiles": "CCC(CC)O[C@@H]1C=C(C(=O)O)C[C@H](N)[C@H]1NC(C)=O", "values": [
      {"measurement": "IC50", "result": 0.39, "unit": "nM"}
    ]}
  ]
}
